Measured values from several laboratories, pooled; numbers as filed in NIAID ChemDB.

All rows: toxicity to cultured cells; cells: HepG2; measure: CC50

CCn: concentration that lowers growth or viability of the cells by n%. Conditions beyond the fields shown may differ between rows. An empty or dashed field is not shown.

SMILES,method,value
Cc1cc(NC(=O)c2c(C)c(C(=O)C(=O)NC3CCC(S(C)(=O)=O)CC3)n(C)c2C2CCCCC2)ccc1F,MTT,>30 µM
CCOC(=O)CCCCCOc1cccc(CN(C(=O)c2ccc(-c3cc(C(F)(F)F)cc(C(F)(F)F)c3)cc2)C(C)C)c1,-,>20 µM
OCc1cn(-c2ccc(F)cc2)nc1-c1ccc(Cl)cc1,luminescence,57 µM
C#Cc1ccc(C(=O)N2Cc3nc(NC(C)C)n(-c4ccc(C(=O)NC)cc4)c(=O)c3C[C@H]2C)cc1C(F)(F)F,luminescence,>50 µM
Cc1cc(NC(=O)c2c(C)c(C(=O)C(=O)N[C@@H]3CC[C@H](O)C[C@H]3F)n(C)c2C)ccc1F,MTT,>30 µM
COc1ccc(F)cc1CNCCCNc1ccnc2cc(Cc3cc(C)cc(C)c3)ccc12,fluorescence,0.94 µM
CCOC(=O)CCCCCOc1cccc(CN(C(=O)c2ccc(-c3ccc(C(C)=O)s3)cc2)C(C)C)c1,-,>20 µM
Cc1ccc(OCC(=O)N2CCCc3ccccc32)cc1,luminescence,>100 µM
Cc1c(C(=O)Nc2ccc(F)c(Br)c2)c(C)n(C)c1C(=O)C(=O)NC1CCC(O)CC1,MTT,>30 µM
CCOC(=O)CCCCCOc1cccc(CN(C(=O)c2ccc(-c3cccc(C#N)c3)cc2)C(C)C)c1,-,>20 µM
COc1cccc(Oc2ccc3c(NCCCNCc4ccco4)ccnc3c2)c1,fluorescence,15.5 µM
O=c1c(C=NCc2cccnc2)c(NCc2cccnc2)nc2ccccn12,luminescence,>100 µM
CNC(=O)C1CC(n2c(NC(C)C)nc3c(c2=O)C[C@@H](C)N(C(=O)c2ccc(Cl)c(C(F)(F)F)c2)C3)C1,luminescence,>50 µM
Cc1cc(C)cc(Cc2ccc3c(NCCCNCc4ccco4)ccnc3c2)c1,fluorescence,6.27 µM
CC(C)C[C@@H]1NC(=O)[C@H](Cc2c[nH]c3ccccc23)NC(=O)[C@@H](CCCNC(N)=O)NC(=O)[C@H](CC(N)=O)NC(=O)[C@H](C(C)C)NC(=O)[C@@H](CC(C)C)NC1=O,MTT,>30 µM
COc1cccc(CNCCCNc2ccnc3cc(Cc4ccc(F)cc4Cl)ccc23)c1O,fluorescence,2.35 µM
COC(=O)c1c(NC(NC(=O)c2cccs2)C(=O)c2ccccc2)sc(C(C)=O)c1C,luminescence,>100 µM
COc1cc2c(cc1OC)C1(CC=CCC1)N(C(C)=O)CC2,-,>20 µM
c1ccc(Cc2ccc3c(NCCCNCc4ccco4)ccnc3c2)cc1,fluorescence,16 µM
CC(C)C[C@@H]1NC(=O)[C@H](Cc2c[nH]c3ccccc23)NC(=O)C(C[C@@H](C)[C@H](N)C(=O)O)NC(=O)[C@H](CC(N)=O)NC(=O)[C@H](C(C)C)NC(=O)[C@@H](CC(C)C)NC1=O,MTT,>30 µM
CCC(CC)c1ccc2c(NCCCNCc3cc(F)ccc3OC)ccnc2c1,fluorescence,7.86 µM
CCOC(=O)CCCCCOc1cccc(CNC(C)C)c1,-,>20 µM
CNC(=O)[C@@H]1CCC[C@H](n2c(NC(C)C)nc3c(c2=O)C[C@@H](C)N(C(=O)c2ccc(Cl)c(C(F)(F)F)c2)C3)C1,luminescence,40.3 µM
CC(C)C[C@@H]1NC(=O)[C@H](Cc2c[nH]c3ccccc23)NC(=O)[C@@H](CO)NC(=O)[C@H](CC(N)=O)NC(=O)[C@H](C(C)C)NC(=O)[C@@H](CC(C)C)NC1=O,MTT,>30 µM
Cc1c(C(=O)Nc2ccc(F)cc2)c(C)n(C)c1C(=O)C(=O)NC1(C)CCC(O)CC1,MTT,>30 µM
CC(C)N(Cc1cccc(OCCCCCC(=O)OC(=O)O)c1)C(=O)c1ccc(-c2ccoc2)cc1,-,>20 µM
CC(C)C[C@@H]1NC(=O)[C@H](Cc2c[nH]c3ccccc23)NC(=O)[C@@H](CCCCN)NC(=O)[C@H](CC(N)=O)NC(=O)[C@H](CC(C)C)NC(=O)[C@@H](CC(C)C)NC1=O,MTT,>30 µM
CNC(=O)[C@H]1CC[C@@H](n2c(NC(C)C)nc3c(c2=O)C[C@@H](C)N(C(=O)c2ccc(Br)c(C(F)(F)F)c2)C3)C1,luminescence,29.8 µM
CCCN(Cc1ccc(OCC(=O)O)cc1)C(=O)c1ccc(-c2ccc3c(c2)OCO3)cc1,-,>20 µM
Cc1c(C(=O)Nc2ccc(F)c(C#N)c2)c(C)n(C)c1C(=O)C(=O)NC(C)(C)C,MTT,>30 µM
CCOC(=O)CCCCCOc1cccc(CN(C(=O)c2ccc(-c3ccc4cc[nH]c4c3)cc2)C(C)C)c1,-,>20 µM
CNC(=O)c1cnc(-n2c(N(C)c3ccccc3)nc3c(c2=O)C[C@@H](C)N(C(=O)c2ccc(Cl)c(C(F)(F)F)c2)C3)n1C,luminescence,>50 µM
CCNc1ccnc2sc(C(=O)Cc3ccccc3)c(N)c12,luminescence,61 µM
CCC(C)[C@@H]1NC(=O)[C@@H](C(C)C)NC(=O)[C@H](CC(C)C)NC(=O)[C@H](Cc2c[nH]c3ccccc23)NC(=O)CNC(=O)[C@H](CC(N)=O)NC1=O,MTT,>30 µM
Cc1c(C(=O)Nc2ccc(F)c(C3CC3)c2)c(C)n(C)c1C(=O)C(=O)NC(C)(C)C,MTT,>30 µM
Nc1c(C(=O)N2CCCC2)sc2nc(-c3ccccc3)ccc12,luminescence,>100 µM
COc1ccc(F)cc1CNCCCNc1ccnc2cc(-c3ccc(C(F)(F)F)cc3)ccc12,fluorescence,5.19 µM
Cc1c(C(=O)Nc2ccc(F)c(C(N)=O)c2)c(C)n(C)c1C(=O)C(=O)NC(C)(C)C,MTT,>30 µM
CC(C)N(Cc1cccc(OCCCCCC(=O)OC(=O)O)c1)C(=O)c1ccc(-c2ccco2)cc1,-,>20 µM

A second listing of 5 rows from above:

SMILES	method	value
CNC(=O)[C@H]1CC[C@@H](n2c(NC(C)C)nc3c(c2=O)C[C@@H](C)N(C(=O)c2ccc(Br)c(C(F)(F)F)c2)C3)C1	luminescence	29.8 µM
CCNc1ccnc2sc(C(=O)Cc3ccccc3)c(N)c12	luminescence	61 µM
COc1ccc(F)cc1CNCCCNc1ccnc2cc(Cc3cc(C)cc(C)c3)ccc12	fluorescence	0.94 µM
Cc1ccc(OCC(=O)N2CCCc3ccccc32)cc1	luminescence	>100 µM
Nc1c(C(=O)N2CCCC2)sc2nc(-c3ccccc3)ccc12	luminescence	>100 µM